Key:
E. coli gyrase = E. coli gyrase (Escherichia coli, UniProt P0AES4+P0AES6); assay: DNA gyrase supercoiling inhibition assay; conditions: read-out: E. coli gyrase IC50; supercoiling of relaxed pBR322, 30 minutes at 37° C.; tested form: HCl
Experimental: The effects of invention compounds on the activity of DNA gyrase is determined in the supercoiling inhibition assay, following reaction conditions recommended by the enzyme supplier (Lucent, Ltd., Leicester, UK). Reactions are performed in buffer G (35 mM Tris-HCl (pH 7.5), 24 mM KCl, 4 mM MgCl2, 2 mM DTT, 1.8 mM spermidine, 1 mM ATP, 0.1 mg/mL bovine serum albumin). Relaxed plasmid pBR322 (0.25 μg, Lucent, Ltd., Leicester, UK) is reacted with 1 U E. coli gyrase (Lucent, Ltd., Leicester, UK), in the absence or presence of test compounds, for 30 minutes at 37° C. Reactions are stopped by the addition of SDS and proteinase K to respective final concentrations of 1% and 0.5 mg/mL. After an additional 30 minutes at 37° C., one-tenth volume of 10× loading buffer (0.3% bromophenol blue, 16% Ficoll, 10 mM Na2HPO4) is added, and reactions are loaded onto agarose gels and electrophoresed. The concentration of representative invention compounds of Formula I inhibiting 50% of the supercoiling activity of DNA gyrase is given as an IC50 and recorded in Table 2.

Chains of the proteins cited; added tags and fusions are not shown.
UniProt P0AES4, whole entry: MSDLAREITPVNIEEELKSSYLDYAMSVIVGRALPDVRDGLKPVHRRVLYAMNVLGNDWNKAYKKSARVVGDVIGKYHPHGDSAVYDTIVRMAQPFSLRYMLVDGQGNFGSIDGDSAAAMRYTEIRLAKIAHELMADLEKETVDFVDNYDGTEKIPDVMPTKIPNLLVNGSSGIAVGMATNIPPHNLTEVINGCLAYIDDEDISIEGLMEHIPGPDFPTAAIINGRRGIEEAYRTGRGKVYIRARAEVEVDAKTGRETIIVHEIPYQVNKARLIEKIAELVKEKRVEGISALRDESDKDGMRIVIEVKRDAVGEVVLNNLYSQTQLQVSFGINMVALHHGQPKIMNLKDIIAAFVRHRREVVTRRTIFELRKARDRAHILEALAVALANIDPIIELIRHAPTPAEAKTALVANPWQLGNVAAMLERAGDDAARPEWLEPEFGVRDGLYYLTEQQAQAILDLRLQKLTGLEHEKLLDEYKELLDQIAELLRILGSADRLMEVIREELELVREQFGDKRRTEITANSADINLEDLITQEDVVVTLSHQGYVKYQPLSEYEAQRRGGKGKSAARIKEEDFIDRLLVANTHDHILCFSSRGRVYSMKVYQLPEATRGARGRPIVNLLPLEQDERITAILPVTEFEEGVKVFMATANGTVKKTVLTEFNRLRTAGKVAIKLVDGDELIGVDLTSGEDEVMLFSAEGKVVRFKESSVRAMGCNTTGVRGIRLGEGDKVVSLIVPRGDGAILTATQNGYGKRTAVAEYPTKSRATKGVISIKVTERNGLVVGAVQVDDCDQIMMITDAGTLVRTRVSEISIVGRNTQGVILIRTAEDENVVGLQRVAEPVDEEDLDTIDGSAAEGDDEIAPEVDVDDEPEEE

E. faecalis RB1 = assay: Antibacterial assay, microtitration MIC; format: cell-based; conditions: Gram positive; tested form: HCl
Experimental: (§1) The compounds of the present invention are tested against an assortment of Gram negative and Gram positive organisms using standard microtitration techniques (Cohen et al., Antimicrob. Agents Chemother., 1985; 28:766; Heifetz et al., Antimicrob. Agents Chemother., 1974; 6:124). The results of the evaluation of representative 3-aminoquinazolin-2,4-diones of Formula I are shown in Table 2 and compared to two 3-hydroxyquinazolin-2,4-diones.

E. coli MC4100 = assay: Antibacterial assay, microtitration MIC; format: cell-based; conditions: Gram negative; tested form: HCl
Experimental: as §1

E. coli B90 = assay: Antibacterial assay, microtitration MIC; format: cell-based; conditions: Gram negative; tested form: HCl
Experimental: as §1

E. coli Tol C = assay: Antibacterial assay, microtitration MIC; format: cell-based; conditions: Gram negative; tested form: HCl
Experimental: as §1

S. pyogenes C203 = assay: Antibacterial assay, microtitration MIC; format: cell-based; conditions: Gram positive; tested form: HCl
Experimental: as §1

S. aureus 29213 = assay: Antibacterial assay, microtitration MIC; format: cell-based; conditions: Gram positive; tested form: HCl
Experimental: as §1

With `Nn1c(=O)c2cc(F)c(N3CCNCC3)c(Cl)c2n(C2CC2)c1=O` the IC50 (E. coli gyrase) was 26 µM, the “Minimum Inhibitory Concentrations E. faecalis RB1” value (E. faecalis RB1) was >64 µg/mL and the “Minimum Inhibitory Concentrations E. coli MC4100” value (E. coli MC4100) was 16.0 µg/mL. The “Minimum Inhibitory Concentrations E. coli B90” value (E. coli B90) was 4.0 µg/mL, the “Minimum Inhibitory Concentrations E. coli Tol C” value (E. coli Tol C) was 2.0 µg/mL and the “Minimum Inhibitory Concentrations S. pyogenes C203” value (S. pyogenes C203) was >64 µg/mL. For the same compound, the “Minimum Inhibitory Concentrations S. aureus 29213” value (S. aureus 29213) was >64 µg/mL.

— patent US7582627B2, “3-aminoquinazolin-2,4-dione antibacterial agents” (Warner-Lambert Company, priority 2000, dated 2009)
